# Laboratory results reported in PubChem BioAssay AID588497 (NMMLSC, 2011).
# The entries are a selection whose mix differs from that of the whole data set. Records with an inconclusive call do not appear. Some structures show a salt or complex split into parts, the way the source records it. Calls of active or inactive are those of the source. Rule as the data show it: active = inhibition above about 35% (passing the limit was not always enough); inconclusive = no clear call, values can overlap the other calls.
# Test system: Botulinum neurotoxin type F light chain protease (Clostridium botulinum)
# Assay: BoNT/F light chain protease inhibitors, primary screen, biochemical, flow cytometry, MLPCN library (AID 588497); also: plate controls were buffer without enzyme for full effect and enzyme alone for no effect
# Conditions: Multiplex microsphere protease cleavage assay, at 10 µM, stronger effect = higher value
row,SMILES,inhibition
1,Cc1ccccc1NP(C)(=O)Nc1ccccc1C,inactive: -7%
2,O=[N+]([O-])c1cc([N+](=O)[O-])c(C(F)(F)F)c([N+](=O)[O-])c1O,inactive: 5.9%
3,CP(=O)(Nc1ccc2c(c1)OCCO2)Oc1ccccc1 (stereo not drawn),inactive: -3%
4,CCOP(C)(=S)SCC(=O)NC(C)(CC)C(=O)O (stereo not drawn),inactive: -10.5%
5,CP(=O)(Nc1ccc(SC(F)(F)F)cc1)Oc1ccc(F)cc1 (stereo not drawn),inactive: 4.3%
6,Cc1c(C(c2ccc3c(c2)OCO3)c2c(C)n(C)n(-c3ccccc3)c2=O)c(=O)n(-c2ccccc2)n1C.O=[N+]([O-])c1cc([N+](=O)[O-])c(O)c([N+](=O)[O-])c1,inactive: -1.5%
7,O=[N+]([O-])c1ccc(OP2(=O)COCCO2)cc1 (stereo not drawn),inactive: -32.1%
8,Cc1cc(-c2cccc3ccccc23)c(C)cn1.O=[N+]([O-])c1cc([N+](=O)[O-])c(O)c([N+](=O)[O-])c1,inactive: 0.7%
9,O=[N+]([O-])c1cc([N+](=O)[O-])c(NCC2CCS(=O)(=O)C2)c([N+](=O)[O-])c1 (stereo not drawn),inactive: 25.2%
10,CN(C)CCOC(=O)C(O)(c1ccccc1)C1CCCCC1 (stereo not drawn),inactive: -6.3%
11,COc1ccc(NP(C)(=O)Oc2ccccc2OC)cc1 (stereo not drawn),inactive: -2.4%
12,COc1ccc(OP(C)(=O)Nc2cccc(Br)c2)cc1 (stereo not drawn),inactive: -3.5%
13,CP(=O)(Nc1ccccc1)Oc1ccc(F)cc1 (stereo not drawn),inactive: -23%
14,Cc1c([N+](=O)[O-])cc([N+](=O)[O-])c(Br)c1[N+](=O)[O-],inactive: 0%
15,CCN(CC)CCCOC(=O)C(O)(c1ccccc1)C1CCCCC1 (stereo not drawn),inactive: -3.4%
16,CCOC(=O)c1ccc(NP(C)(=O)Oc2ccc(F)cc2)cc1 (stereo not drawn),inactive: 3%
17,COc1ccc(OP(C)(=O)Nc2ccc(SC(F)(F)F)cc2)cc1 (stereo not drawn),inactive: -6.2%
18,CCN(CC)CCCNc1ccccc1[N+](=O)[O-].O=[N+]([O-])c1cc([N+](=O)[O-])c(O)c([N+](=O)[O-])c1,inactive: 1.2%
19,COc1ccc2c(c1O)-c1c(O)c(OC)cc3c1[C@H](C2)[N+](C)(C)CC3.O=[N+]([O-])c1cc([N+](=O)[O-])c([O-])c([N+](=O)[O-])c1[O-],inactive: -11.5%
20,O=C(OC1CN2CCC1CC2)c1ccc([N+](=O)[O-])cc1 (stereo not drawn),inactive: -0.3%
21,O=C(OCCN1CCN(CCOCc2ccccc2)CC1)C(O)(c1ccccc1)c1ccccc1,inactive: -4.4%
22,CP(=O)(Nc1ccccc1F)Oc1ccccc1 (stereo not drawn),inactive: -0.1%
23,CC(C)c1ccc(OP(C)(=O)Nc2ccc(SC(F)(F)F)cc2)cc1 (stereo not drawn),inactive: -2.1%
24,O=[N+]([O-])c1cc([N+](=O)[O-])c(Nc2ccc(Cl)cc2)c([N+](=O)[O-])c1,inactive: -4.3%

row,SMILES,inhibition
1,CP(=O)(Nc1ccccn1)Oc1ccccc1 (stereo not drawn),inactive: 15.5%
2,COc1ccccc1OP(C)(=O)Nc1ccc(C)cc1C (stereo not drawn),inactive: 4.5%
3,CCc1ccc(OP(C)(=O)O)cc1,inactive: 5.2%
4,O=[N+]([O-])c1cc([N+](=O)[O-])c(Nc2ccccn2)c([N+](=O)[O-])c1,inactive: 1.4%
5,Cc1c(NP(C)(=O)Oc2ccc(C(C)C)cc2)c(=O)n(-c2ccccc2)n1C (stereo not drawn),active: 34.9%
6,COc1ccc(OP(C)(=O)Nc2ccccn2)cc1 (stereo not drawn),inactive: 1.8%
7,CN(C)CCOC(=O)C(O)(c1ccccc1)C1CCCC1 (stereo not drawn),inactive: 0.1%
8,COc1ccccc1OP(C)(=O)Nc1ccc(Br)cc1 (stereo not drawn),inactive: -8.7%
9,CP(=O)(OCCOc1ccccc1)OCCOc1ccccc1,inactive: 0.5%
10,CCCCCCCCCCCCCCCC1C[N+](C)(C)CCOP(C)(=O)O1 (stereo not drawn),inactive: -20.4%
11,CP(=O)(Nc1ccc(Cl)cc1Cl)Oc1ccccc1 (stereo not drawn),inactive: -1.2%
12,COc1ccccc1OP(C)(=O)Nc1ccc(C)c(C)c1 (stereo not drawn),inactive: 9%
13,COc1ccc(OP(C)(=O)Nc2ccccc2Br)cc1 (stereo not drawn),inactive: 0.1%
14,O=C1C(O)=C([N+](=O)[O-])C(=O)C(O)=C1[N+](=O)[O-],inactive: -9.5%
15,Cc1cc(C)cc(OP(C)(=O)Nc2cccc(C(F)(F)F)c2)c1 (stereo not drawn),inactive: 6.5%
16,CCOC(=O)c1ccc(NP(C)(=O)Oc2ccc(Cl)cc2)cc1 (stereo not drawn),inactive: -4%
17,CP(=O)(OC12CC3CC(CC(C3)C1)C2)OC12CC3CC(CC(C3)C1)C2,inactive: -1.5%
18,CN(C)C(=O)c1c([N+](=O)[O-])cc([N+](=O)[O-])cc1[N+](=O)[O-],inactive: 0.8%
19,CC(C)(C)c1ccc(OP(C)(=O)O)cc1,inactive: -1.5%
20,COc1ccccc1OP(C)(=O)Nc1ccccc1Br (stereo not drawn),inactive: -2.4%
21,CP(=O)(Nc1ccc(Cl)cc1)Oc1ccc(F)cc1 (stereo not drawn),inactive: -15.5%
22,COc1ccccc1OP(C)(=O)Nc1c(C)n(C)n(-c2ccccc2)c1=O (stereo not drawn),inactive: -1.5%
23,CP(=O)(Oc1ccccc1)N1CCOC1=O (stereo not drawn),inactive: -0.9%
24,CCc1ccc(OP(C)(=O)Nc2cccnc2)cc1 (stereo not drawn),inactive: -3%

row,SMILES,inhibition
1,CCN(CC)CC(O)COC(=O)C(O)(c1ccccc1)C1CCCCC1 (stereo not drawn),inactive: 14.3%
2,COc1ccc(OP(C)(=O)Nc2ccc(Br)cc2)cc1 (stereo not drawn),inactive: -1%
3,CP(=O)(Nc1ccccn1)Oc1ccc(Cl)cc1 (stereo not drawn),inactive: -3.6%
4,CCOC(=O)c1ccc(NP(C)(=O)Oc2ccc(OC)cc2)cc1 (stereo not drawn),inactive: -2.8%
5,CCOP(C)(=S)SCC(=O)NC(C)C(=O)O (stereo not drawn),inactive: -4%
6,CCc1ccc(OP(C)(=O)N2CCN(c3ccc([N+](=O)[O-])cc3)CC2)cc1 (stereo not drawn),inactive: 25.2%
7,CP(=O)(NC(=O)Nc1ccccc1)Oc1ccccc1 (stereo not drawn),inactive: -3.2%
8,Cc1cc(C)cc(OP(C)(=O)Nc2ccc(SC(F)(F)F)cc2)c1 (stereo not drawn),inactive: 2.5%
9,Cc1ccc(Nc2c([N+](=O)[O-])cc([N+](=O)[O-])cc2[N+](=O)[O-])cc1,inactive: -6.6%
10,Cc1cccc(C)c1OP(C)(=O)Nc1ccc(SC(F)(F)F)cc1 (stereo not drawn),inactive: -6.6%
11,CP(=O)(Nc1ccc(SC(F)(F)F)cc1)Oc1ccc(Cl)cc1 (stereo not drawn),inactive: -11.3%
12,CP(=O)(Oc1ccccc1)OC(c1ccccc1)C(F)(F)F (stereo not drawn),inactive: -5.3%
13,CP(=O)(Nc1ccccc1Br)Oc1ccccc1 (stereo not drawn),inactive: 4.1%
14,COc1ccccc1OP(C)(=O)Nc1ccccc1 (stereo not drawn),inactive: 2.9%
15,CP(=S)(Nn1cnnc1)Oc1ccccc1 (stereo not drawn),inactive: -11.5%
16,Cc1cc(C)cc(OP(C)(N)=O)c1 (stereo not drawn),inactive: 4.5%
17,COc1ccccc1OP(C)(=O)Nc1cc(Cl)ccc1C (stereo not drawn),inactive: -0.7%
18,COc1ccc(OP(C)(=O)Nc2cccc(F)c2)cc1 (stereo not drawn),inactive: 3.5%
19,COc1ccccc1OP(C)(=O)Nc1ccc(C)cc1 (stereo not drawn),inactive: -2.6%
20,Cc1ccc(NP(C)(=O)Oc2ccccc2)c(C)c1 (stereo not drawn),inactive: 1.4%
21,CCOC(=O)c1ccc(NP(C)(=O)Oc2ccccc2)cc1 (stereo not drawn),inactive: 1.4%
22,O=[N+]([O-])c1ccc2c(c1)C=Nc1ccccc1O2,inactive: 1.3%
23,CC(C)(C)c1ccc(OP(C)(=O)Nc2ccc(SC(F)(F)F)cc2)cc1 (stereo not drawn),inactive: -15.9%
24,Cc1cccc(C)c1OP(C)(N)=O (stereo not drawn),inactive: -4.5%

row,SMILES,inhibition
1,O=[N+]([O-])c1cc([N+](=O)[O-])c(Nc2cccnc2)c([N+](=O)[O-])c1,inactive: -12%
2,COc1ccccc1-c1ccccn1.O=[N+]([O-])c1cc([N+](=O)[O-])c(O)c([N+](=O)[O-])c1,inactive: 8.8%
3,CCN(CC)CCCOC(=O)C(O)(c1ccccc1)c1ccccc1,inactive: 3.5%
4,Cc1ccc(C)c(NP(C)(=O)Oc2ccccc2)c1 (stereo not drawn),inactive: -50.4%
5,CP(=O)(Nc1cccc(Br)c1)Oc1ccccc1 (stereo not drawn),inactive: -3.5%
6,Cc1cc(C)cc(OP(C)(=O)Nc2ccccn2)c1 (stereo not drawn),inactive: 4.5%
7,CCOC(=O)c1ccc(NP(C)(=O)Oc2cc(C)cc(C)c2)cc1 (stereo not drawn),inactive: -3.5%
8,Cc1cc(C)cc(OP(C)(=O)Nc2ccc(C)cc2C)c1 (stereo not drawn),inactive: 6.6%
9,COc1ccccc1OP(C)(=O)Nc1cccc(Br)c1 (stereo not drawn),inactive: -1.2%
10,CC1=NCCc2c1[nH]c1ccccc21.O=[N+]([O-])c1cc([N+](=O)[O-])c(O)c([N+](=O)[O-])c1,inactive: -9.5%
11,O=C(O)c1cccc(Nc2c([N+](=O)[O-])cc([N+](=O)[O-])cc2[N+](=O)[O-])c1,inactive: 2%
12,COc1ccc(-c2ccccn2)cc1.O=[N+]([O-])c1cc([N+](=O)[O-])c(O)c([N+](=O)[O-])c1,inactive: -11%
13,CP(=O)(Nc1ccc(SC(F)(F)F)cc1)Oc1ccccc1 (stereo not drawn),inactive: -1.1%
14,CCCOc1ccc(NP(C)(=O)Oc2ccc(Cl)cc2)cc1 (stereo not drawn),inactive: -6.3%
15,COc1ccccc1OP(C)(=O)Nc1c(C)cccc1C (stereo not drawn),inactive: 6%
16,CN1CCCCC1COC(=O)C1(O)c2ccccc2CCc2ccccc21 (stereo not drawn),inactive: -3.5%
17,CC1=C2N=C(C=C3N=C(C(C)=C4[N-][C@@](C)([C@@H]5N=C1[C@](C)(CCC(=O)NC[C@@H](C)OP(=O)([O-])O[C@H]1[C@@H](O)[C@@H](n6cnc7cc(C)c(C)cc76)O[C@@H]1CO)[C@H]5CC(N)=O)[C@@](C)(CC(N)=O)[C@@H]4CCC(N)=O)[C@@](C)(CC(N)=O)[C@@H]3CCC(N)=O)C(C)(C)[C@@H]2CCC(N)=O.[C-]#N.[Co+3],inactive: -1.7%
18,CCOC(=O)C(CC)C1=NC(C)(C)Cc2ccccc21.O=[N+]([O-])c1cc([N+](=O)[O-])c(O)c([N+](=O)[O-])c1 (stereo not drawn),inactive: 2.7%
19,Cc1nc2ccc3ccccc3c2s1.O=[N+]([O-])c1cc([N+](=O)[O-])c(O)c([N+](=O)[O-])c1,inactive: -1%
20,CN(Cc1cccnc1)C(=O)COc1ccc(Cl)c(Cl)c1.O=[N+]([O-])c1cc([N+](=O)[O-])c(O)c([N+](=O)[O-])c1,inactive: -9.9%
21,O=[N+]([O-])c1cc([N+](=O)[O-])c(-n2nnc3ccccc32)c([N+](=O)[O-])c1,inactive: 8.8%
